The assay relates to Candida albicans. As to the kind of experiment: Antimicrobial activity against Candida albicans MTCC227 assessed as zone diameter at 100 ug/ml after 24 hrs incubation by agar diffusion as say cup method. The class given is functional. In a few lines: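 Agar cup diffusion on nutrient agar plates. Solidified plates were spread with 0.1% cell suspension (10^6 CFU/mL) of the test organism and held 15 min, then 6 mm wells were cut. Samples at 100 µg/mL in DMSO went into the wells, and plates were incubated 24 h at 30–35 °C. Inhibition zone diameter was measured in mm by digital vernier caliper. Triplicate parallel sets gave mean ± standard deviation, compared by ANOVA with Tukey test (P < 0.01).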
Turning to `COP(=O)(OC)[Se]Cc1ccccc1`, the inhibition zone (IZ) was 30.5 mm.

For the compound `CC(C)OP(=O)(OC(C)C)[Se]Cc1ccccc1`, the inhibition zone (IZ) stood at 27.4 mm.

As for `CCOP(=O)(OCC)[Se]Cc1ccccc1`, the inhibition zone (IZ) came to 30.2 mm.

These data come from ChEMBL document CHEMBL3259574, “Environmentally benign synthesis and antimicrobial study of novel chalcogenophosphates” (Bioorg Med Chem Lett, 2014).
